Measurements reported in PubChem BioAssay AID504761 (Drosophila RNAi Screening Center, 2011)

Assay: 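Genome-wide fly cell screen for genes dengue virus requires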 (primary screen)
Cells: D.Mel-2 cells from Drosophila
Reagent: long dsRNA against Drosophila genes
Treatment: infection with dengue virus type 2; dose and infection time not stated
Read-out: 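Cells stained for dengue envelope protein and imaged; percent of infected cells per well on duplicate plates, ranked by infection, with stained nuclei counted for cell number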
Reading the numbers: infection score: higher = more virus-infected cells; cell count: higher = more cells in the well
Active means: 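Low infection ranks in the two replicates (chance level up to 0.065) followed by a retest with a 1.5-fold or larger significant decrease, p below 0.05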
Meaning of the calls: active = confirmed: knock-down lowers infection; inactive = not picked or not confirmed
The screen tested about 22,000 reagents; shown is an unselected part of those with a known target gene and a result. Of all reagents, 116 (0.52%) were called active. 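Calls depend on retest data that are not deposited; infection was ranked per plate without normalising between plates; the unit of the infection score is not given.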 Raw values are not corrected between plates. Entries without a mark were called inactive. Reagent sequences are not shown. The record does not give: the amount of reagent, the time to read-out.

Target gene	DRSC id	infection score, replicate 1	infection score, replicate 2	cell count, replicate 1	cell count, replicate 2
CG3739	DRSC15510	0.52	4.19	6563	6135
CG9899	DRSC04597	13.3	13.4	5047	3180
lambdaTry	DRSC06137	5.83	23.2	1475	5761
Andorra	DRSC19475	1.91	16.9	6947	6829
Prp8	DRSC07293	50.8	61.8	1735	2449
CG1142	DRSC12531	24.2	3.31	5223	6472
CG1142	DRSC27795	3.97	12.8	6040	6165
TP53INP	DRSC08178	2.1	5.67	6148	6473
TP53INP	DRSC22552	12.2	5.49	6966	6176
TP53INP	DRSC25638	7.23	6	6032	6167
Tengl4	DRSC15620	1.31	3.54	6739	6704
CG5877	DRSC19963	9.52	0.54	6625	6863
CG5877	DRSC28413	10.1	10.7	5039	4581
CG2519	DRSC12312	3.22	16.5	6739	6631
Cpr23B	DRSC23504	1.15	1.64	6170	6166
Whamy	DRSC14574	4.68	15.3	6561	5378
Whamy	DRSC28119	12.4	26.4	6478	4625
rump	DRSC16480	11.9	15.2	5331	5451
Ca-alpha1T	DRSC17842	4.31	7.36	6007	5749
Ca-alpha1T	DRSC18103	1.69	3.92	6409	6758
Ca-alpha1T	DRSC18356	8.05	20.4	6039	5315
Ca-alpha1T	DRSC18357	18	19.2	5463	4192
Ca-alpha1T	DRSC21430	2.06	11.4	5721	5957
CG18493	DRSC15334	0.23	1.85	6978	6064
CG32182	DRSC09508	0.18 (active)	0.06	6233	6994
CG32182	DRSC24583	4.82	3.99	6303	6513
CG5412	DRSC15796	5.69	6.71	6744	6300
CG16985	DRSC08501	10.3	12.8	6516	6134
ZnT86D	DRSC16091	3.18	5.33	6669	6716
CG14627	DRSC18630	8.78	4.83	3942	6751
CG4853	DRSC06898	6.27	5.46	1484	2108
CG4853	DRSC28240	16.6	7.98	5079	5561
l(1)10Bb	DRSC20346	3.9	0.67	3003	3286
CG3610	DRSC15502	8.79	27.9	6793	4584
CG3610	DRSC27339	12.3	2.2	6703	6493
Nup62	DRSC06970	7.81	6.27	3917	2789
loaf	DRSC09130	5.78	2.2	6416	6323
Tmem214	DRSC02924	0.46 (active)	0.88	6744	6839
Tmem214	DRSC02925	0.77	0.46	6713	6999
Tmem214	DRSC28172	12.1	6.88	6650	6223

Copied from the entries so far, 6 entries:
Target gene	DRSC id	infection score, replicate 1	infection score, replicate 2	cell count, replicate 1	cell count, replicate 2
Andorra	DRSC19475	1.91	16.9	6947	6829
Prp8	DRSC07293	50.8	61.8	1735	2449
CG1142	DRSC12531	24.2	3.31	5223	6472
CG1142	DRSC27795	3.97	12.8	6040	6165
TP53INP	DRSC08178	2.1	5.67	6148	6473
TP53INP	DRSC22552	12.2	5.49	6966	6176
